Measurements reported in patent US12708649B2, “Compositions and methods for improving skin health and for the treatment and prevention of diseases, disorders and conditions associated with fungi and other pathogenic microbes” (priority 2020, dated 2026).
“And” between values parts separate entries of the source, which are not always exact repeats. Equal values may be shown once. Read-outs that look alike come from different tables or passages of the source. Where a SMILES comes first, the peptide text is derived from it.

Tested on: Alcaligenes faecalis DB05646 / Malassezia furfur cultures
Experiment: Metabolite profile by LC-MS: DB05646 single culture and co-culture with M. furfur
[1] = DB05646 single culture, Media 22, 48 hours

Compound	Fold of change Coculture vs DB05646 (DB05646-M. furfur co-culture)	Fold of change Coculture vs M.furfur (DB05646-M. furfur co-culture)	Fold of change Coculture vs Media (DB05646-M. furfur co-culture)	Fold of change DB05646 vs Media [1]	Fold of change M.furfur vs Media (M. furfur single culture)	Fold of change Coculture vs DB05646	Fold of change Coculture vs M.furfur	Fold of change Coculture vs Media	Fold of change DB05646 vs Media	Fold of change M.furfur vs Media
CC(=O)NCCCCN [(1Z)-N-(4-Aminobutyl)ethanimidic acid]	0.6 fold	0.9 fold	3.3 fold	5.6 fold	3.7 fold	–	–	–	–	–
NCCCC[C@H](NC=O)C(N)=O [(2S)-6-Amino-2-[(E)-(hydroxymethylene)amino]hexanimidic acid]	0.7 fold	4.3 fold	5.9 fold	8.0 fold	1.4 fold	–	–	–	–	–
CCOC(=O)CC(=O)OCC [Diethyl malonate]	0.9 fold	2.1 fold	903.6 fold	1040.6 fold	439.0 fold	–	–	–	–	–
CC(=O)N[C@@H](CCCN)C(=O)O [N-Acetylornithine]	1.1 fold	4.7 fold	23.7 fold	21.0 fold	5.0 fold	–	–	–	–	–
Cc1c[nH]c(=O)nc1N [5-Methylcytosine]	1.1 fold	3.6 fold	7.5 fold	6.8 fold	2.1 fold	–	–	–	–	–
Cc1nc(C)c(C)nc1C [2,3,5,6-Tetramethylpyrazine]	0.4 fold	16.2 fold	14.0 fold	31.4 fold	0.9 fold	–	–	–	–	–
O=C1CCCC(C(=O)O)N1 (stereo not drawn) [6-Oxo-pipecolinic acid]	0.9 fold and 0.8 fold	2.3 fold and 2.7 fold and 1.8 fold	–	–	–	–	–	–	–	–
Isopropyl methoxy pyrazine	0.5 fold	37.4 fold	39.3 fold	85.1 fold	1.1 fold	–	–	–	–	–
CCCCC1(COC(=O)CCC(=O)O)C(=O)N(c2ccccc2)N(c2ccccc2)C1=O [Suxibuzone]	68.4 fold	0.4 fold	74.2 fold	1.1 fold	167.0 fold	–	–	–	–	–
COC(=O)CC(C)=O [Methyl acetoacetate]	0.6 fold	8.1 fold	14.2 fold	23.2 fold	1.8 fold	–	–	–	–	–
CCOC(=O)CC(C)=O [Ethyl acetoacetate]	0.8 fold	12.5 fold	125.1 fold	164.8 fold	10.0 fold	–	–	–	–	–
O=C(O)CC(=O)O [malonic acid]	–	significantly lower	–	–	–	–	–	–	–	–
NC(CCCC(=O)O)C(=O)O (stereo not drawn) [Aminoadipic acid]	0.6 fold	90.8 fold	68.0 fold	106.4 fold	0.7 fold	–	–	–	–	–
CCc1ncccc1C(N)=O [2-Ethylnicotinamide]	0.6 fold	56.4 fold	49.4 fold	81.3 fold	0.9 fold	–	–	–	–	–
O=C(O)C1=NCCCC1 [D-1-Piperideine-2-carboxylic acid]	0.6 fold	4.3 fold	1865.8 fold	2874.9 fold	434.3 fold	–	–	–	–	–
CC(=O)N[C@@H](CCC(=O)O)C(=O)O [N-Acetylglutamic acid]	0.7 fold	1.4 fold	12.6 fold	17.6 fold	9.2 fold	–	–	–	–	–
CCN(CC)CCNC(=O)c1ccc(NC(C)=O)cc1 [N-Acetylprocainamide]	0.1 fold	11.8 fold	13.1 fold	178.8 fold	1.1 fold	–	–	–	–	–
CCC(C)C1C=C(C(O)CC(O)C(O)C(=O)O)C(C(C)CC)C1 (stereo not drawn) [4-Deoxy-5-C-(3,5-di-sec-butyl-1-cyclopenten-1-yl)pentonic acid]	3.7 fold	7.5 fold	0.1 fold	0.0 fold	0.0 fold	–	–	–	–	–
N#CCC(=O)NCC1CCCO1 (stereo not drawn) [N1-tetrahydrofuran-2-ylmethyl-2-cyanoacetamide]	0.4 fold	4.3 fold	3.3 fold	7.8 fold	0.8 fold	–	–	–	–	–
COc1cc(C=O)ccc1O [vanillin]	0.9 fold	1.2 fold	363.4 fold	384.0 fold	312.5 fold	–	–	–	–	–
N=C(N)NCCCC(=O)C(=O)O [5-guanidino-2-oxopentanoic acid]	0.5 fold	13.0 fold	1424.5 fold	3090.7 fold	109.8 fold	–	–	–	–	–
CC(=O)NCCCC[C@H](N)C(=O)O [N6-Acetyl-L-lysine]	–	–	–	–	–	0.7 fold	2.9 fold	38.9 fold	57.5 fold	13.3 fold
O=S(=O)(O)CCCN1CCOCC1 [4-Morpholinepropanesulfonic acid]	6713.0 fold	0.9 fold	9151.4 fold	1.4 fold	10458.3 fold	–	–	–	–	–
CC(=O)N[C@@H](CC(=O)O)C(=O)O [N-Acetylaspartic acid]	0.9 fold	8.9 fold	12.7 fold	13.6 fold	1.4 fold	–	–	–	–	–
NCCCC[C@H](N)C(=O)N1CCC[C@H]1C(=O)O [Lys-Pro] (H-Lys-Pro-OH)	0.4 fold	1.8 fold	2.7 fold	6.2 fold	1.5 fold	–	–	–	–	–
N=C(N)NCCCC(=O)O [4-Guanidinobutyric acid]	0.7 fold	8.3 fold	10.6 fold	15.8 fold	1.3 fold	–	–	–	–	–
